The values below come from paper PMC8308780, “Antiviral Activity of Isoquinolone Derivatives against Influenza Viruses and Their Cytotoxicity” (Pharmaceuticals, 2021).

What all share (settings): ratio CC50 / EC50
Data set [1] relates to A/Hong Kong/8/68 (H3N2; HK). It counts as cell-based, influenza A virus.
Data set [2] has as its system A/Puerto Rico/8/34 (H1N1; PR8). Type of data set: cell-based, influenza A virus.
A further data set concerns B/Lee/40 (Lee). Type of data set: cell-based, influenza B virus.

Where a name gives a salt, the structure may show the parent alone.

Regarding `NC12CC3CC(CC(C3)C1)C2` [AMT, amantadine hydrochloride, reference compound], the “S.I. HK” value in data set [1] was over 187.5.

In the case of `CCc1cc2c(cc1-c1cc3ccc(OC)c(OC)c3c(=O)n1C)OCO2` [Compound 1, 3-(6-ethylbenzo[d][1,3]dioxol-5-yl)-7,8-dimethoxy-2-methylisoquinolin-1(2H)], in data set [2], the “S.I. PR8” value was 195.0. In addition, the “S.I. HK” value in data set [1] is given as 130.0. In addition, the “S.I. Lee” value in the data set on B/Lee/40 (Lee) is 65.0.

On to `O=c1[nH]c(-c2ccccc2)cc2ccccc12` [Compound 2, 3-phenylisoquinolone], for which, in data set [2], the “S.I. PR8” value is on record as over 6.7. Moreover, the “S.I. HK” value in data set [1] is over 4.1. Also, the “S.I. Lee” value with B/Lee/40 (Lee) is reported as over 3.4.

In the case of `O=c1[nH]c(-c2ccccc2O)cc2ccccc12` [Compound 3], in data set [2], the “S.I. PR8” value was over 5.3. Moreover, the “S.I. HK” value in data set [1] is given as over 2.9.

For `O=c1[nH]c(-c2ccccc2CO)cc2ccccc12` [Compound 4], the “S.I. PR8” value in data set [2] was over 5.7. In addition, the “S.I. HK” value in data set [1] is over 3.7. Besides, in the data set with B/Lee/40 (Lee), the “S.I. Lee” value is given as over 17.4.

With `COc1ccccc1-c1cc2ccccc2c(=O)[nH]1` [Compound 5], the “S.I. Lee” value in the data set on B/Lee/40 (Lee) was 86.0.

For `Cc1cccc(-c2cc3c(N(C)C)cccc3c(=O)[nH]2)c1` [Compound 6], the “S.I. Lee” value in the data set on B/Lee/40 (Lee) is recorded as over 5.1.

On to `COc1ccc(-c2cc3cc(C)ccc3c(=O)[nH]2)cc1OC` [Compound 11], for which, in data set [2], the “S.I. PR8” value was over 9.3. For the same molecule, the “S.I. HK” value in data set [1] was over 3.2. The “S.I. Lee” value with B/Lee/40 (Lee) is recorded as over 4.0.

As for `COc1ccc(-c2[nH]c(=O)c3ccc(C)cc3c2Br)cc1OC` [Compound 13], the “S.I. PR8” value in data set [2] is recorded as over 1.7. The “S.I. HK” value in data set [1] is listed as over 1.7.

For `CCc1cc2c(cc1-c1cc3ccc(OC)c(O)c3c(=O)n1C)OCO2` [Compound 17], the “S.I. PR8” value in data set [2] amounted to 3.0. The “S.I. HK” value in data set [1] came to 18.8.

Turning to `C=Cc1cc2c(cc1-c1cc3ccc(OC)c(OC)c3c(=O)n1C)OCO2` [Compound 18], the “S.I. PR8” value in data set [2] is listed as 14.4. Further, the “S.I. HK” value in data set [1] is 28.8. Besides, the “S.I. Lee” value in the data set with B/Lee/40 (Lee) is 36.6.

Consider `COc1ccc2cc(-c3cc4c(cc3CCO)OCO4)n(C)c(=O)c2c1OC` [Compound 19], for which the “S.I. PR8” value in data set [2] is over 5.0. For the same molecule, the “S.I. HK” value in data set [1] was over 6.5. For the same molecule, the “S.I. Lee” value in the data set on B/Lee/40 (Lee) is recorded as over 13.5.

For the molecule `COc1ccc2cc(-c3cc4c(cc3CCO)OCO4)[nH]c(=O)c2c1OC` [Compound 20], the “S.I. PR8” value in data set [2] is recorded as over 10.1. The “S.I. HK” value in data set [1] is on record as over 25.2. Further, in the data set on B/Lee/40 (Lee), the “S.I. Lee” value is on record as over 19.2.

Take `COc1cc2cc(-c3ccccc3)[nH]c(=O)c2cc1OC` [Compound 21, 6,7-dimethoxy-3-phenylisoquinolone]: the “S.I. PR8” value in data set [2] is recorded as over 16.2. Besides, the “S.I. HK” value in data set [1] is reported as over 27.5. The “S.I. Lee” value with B/Lee/40 (Lee) is listed as over 30.3.

Turning to `CCC(CC)O[C@@H]1C=C(C(=O)O)C[C@H](N)[C@H]1NC(C)=O` [OSV-C, oseltamivir carboxylate, reference compound], in data set [2], the “S.I. PR8” value is over 6000. Besides, the “S.I. HK” value in data set [1] is reported as > 10,000.

With `NC(=O)c1ncn([C@@H]2O[C@H](CO)[C@@H](O)[C@H]2O)n1` [RBV, ribavirin, reference compound], the “S.I. PR8” value in data set [2] was 25.0 (>16.2). The “S.I. HK” value in data set [1] is listed as 43.8 (>19.7).
